Patent publication US8192854B2, “Microbial fuel cell treatment of ethanol fermentation process water” (priority 2009, dated 2012)

Columns and labels:
[1] = system: inhibitor-consuming microbial consortium in a microbial fuel cell (MFC-A); assay: Power density analysis of MFC with individual inhibitor as substrate, ferricyanide cathode; details: for maximum power density: substrate at 0.2 g/L, projected anode area; for volumetric power density: converted from area power density with anode specific surface area 79 m^2/m^3 and NAV 0.83
[2] = system: inhibitor-consuming microbial consortium in a microbial fuel cell (MFC-A); assay: Coulombic efficiency and HPLC analysis of inhibitor conversion in MFC; details: individual substrate in MFC
[3] = system: inhibitor-consuming microbial consortium in a microbial fuel cell (MFC-A); assay: Removal of inhibitor mixture during enrichment of consortium in MFC-A; details: mixture of 0.2 g/L 2-furfural, 0.1 g/L HB, 0.1 g/L HAP, 0.5 g/L VA added at time zero

Structure (SMILES) | maximum power density [1] [mW/m^2] | volumetric power density [1] [W/m^3] | coulombic efficiency (CE) [2] [%] | degree of mineralization (coulombic efficiency and HPLC data) [2] | time of consumption of substrate [3] [days]
COc1cc(C(=O)O)ccc1O [VA, vanillic acid] | 150 |  |  |  | 
O=Cc1ccc(CO)o1 [HMF, 5-hydroxymethylfurfural] | 2510 | 238 | 60±4 | near complete mineralization | 
O=Cc1ccc(O)cc1 [HB, 4-hydroxybenzaldehyde] | 630 | 59 | 64±4 |  | 5
CC(=O)c1ccc(O)cc1 [HAP, 4-hydroxyacetophenone] | 9 |  |  |  | 
